{
  "source": "patent US5629198A",
  "about": "(priority 1991, dated 1997)",
  "key": {"[1]": {"tested_on": "Molt-4/C18 cells infected with Molt-4/HTLV-IIIB culture supernatant", "experiment": "Inhibiting effect on cytopathy, MTT assay (Test Example 8 (2))", "format": "cell-based, human", "settings": "4 days, positive control 27", "method": "(2) The inhibiting effects of test substances on the formation of multinucleated giant cells and on cytopathy in a Molt-4/C18 cell-infected system were investigated.\nMolt-4/C18 cells in a logarithmic growth phase were inoculated in a proportion of 2×10^4 cells/well (20 μl) on a 96-well flat-bottom plate, and 30 μl of a culture supernatant of Molt-4/HTLV-IIIB cells were added. Then, solutions of the test substances in various concentrations were separately added in an amount of 50 μl, followed by their culture at 37° C. under conditions of 5% CO2. To wells for a positive control, 50 μl of a culture medium were added in place of the solution of each test substance, while to wells for a negative control, 30 μl of the culture medium were added instead of the culture supernatant. Defining the day the culture was started as Day 0, the culture was continuously conducted for 4 days to observe a state of formation of multinucleated giant cells and to count the number of living cells by the MTT assay."}, "mice": {"tested_on": "mice", "experiment": "One-administration toxicity test, oral (Test Example 9)", "format": "in vivo", "settings": "single, 21600 min", "method": "A specimen was suspended in distilled water for injection to give a concentration of 50 mg/ml to orally administer (2,000 mg/kg) to 5 groups each consisting of 5 mice by a probe. Defining the day of the administration as 0 day, their weights were measured on the second, fourth, seventh, tenth and fifteenth days.\nIn each of the toxicity tests, organ autopsy was conducted to all the mice on the fifteenth day after the administration."}, "[2]": {"tested_on": "human peripheral blood lymphocytes infected with HIV", "experiment": "Living cells in HIV-infected PBL system (Test Example 7)", "format": "cell-based", "settings": "200 μg/ml", "method": "(§1) The anti-HIV effects of test substances on human peripheral blood lymphocytes infected with HIV were determined.\n(§2) After blood is collected from a vein by a syringe whose interior wall is wetted with heparin, PBL is separated from the blood with Ficol. After this PBL cell is inoculated on a 25-cm^2 culture flask containing 10 ml of a RPMI 1640 medium (including IL-2) added with 20% of a fetal bovine serum so as to contain 7×10^5 cells/ml therein, 40 μl (1 mg/ml) of PHA are added to culture the cells for 2 days. After 2 days, the cells are washed. Thereafter, they are used in assaying the anti-HIV effects of the test substances as PBL cells in an HIV-uninfected system for part of them, and in an HIV-infected system for the remainder. The PBL cells are inoculated on a 25-cm^2 culture flask added with 5 ml of the above medium so as to contain 2×10^6 cells therein. Then, 500 μl (final concentration: 200 μg/ml) of S-HSA-EDC-Hemin are given thereto so as to conduct culture at 37° C. in the presence of 5% CO2, thereby assaying the cytotoxic effect of the test substance. With respect to the infected system on the other hand, 0.5 ml of HTLV-IIIB (10^7 TCID50 /ml) obtained from a culture supernatant of an HIV-persistently infected strain, MOLT-4/HTLV-IIIB is inserted in the PBL cells to culture them for 2 days. Thereafter, the cells are washed, and then inoculated on a 25-cm^2 culture flask added with 5 ml of the medium so as to contain 2×10^6 cells therein. In the same manner as described above, S-HSA-EDC-Hemin is given thereto, thereby conducting culture at 37° C. in the presence of 5% CO2. After 4 days, the number of cells are counted to calculate the number of HIV envelope protein gp120 positive cells, analysis making use of FACS and the quantity of P24 protein produced."}, "male ICR mice": {"tested_on": "male ICR mice", "experiment": "Repeated-administration toxicity test, 2 weeks (Test Example 10)", "format": "in vivo", "settings": "intravenous, 80, 200 and 500 mg/kg/day", "method": "S-HSA-EDC-Hemin was repeatedly administered for 2 weeks at doses of 80, 200 and 500 mg/kg/day in veins of male ICR mice (Charles River Japan, Inc., 15 mice per group) to observe its effects."}, "[3]": {"tested_on": "HTLV-IIIB in human peripheral blood lymphocytes (PBL)", "experiment": "p24 produced in HIV-infected PBL system (Test Example 7)", "format": "cell-based, HIV (HTLV-IIIB)", "settings": "200 μg/ml", "method": "as §1\nas §2, with “With respect to the infected system on the other hand, 0.5 ml of HTLV-IIIB (10^7 TCID50 /ml) obtained from a culture supernatant of an HIV-persistently infected strain, MOLT-4/HTLV-IIIB is inserted in the PBL cells to culture them for 2 days. Thereafter, the cells are washed, and then inoculated on a 25-cm^2 culture flask added with 5 ml of the medium so as to contain 2×10^6 cells therein. In the same manner as described above, S-HSA-EDC-Hemin is given thereto, thereby conducting culture at 37° C. in the presence of 5% CO2.” left out"}, "[4]": {"tested_on": "HTLV-IIIB in human peripheral blood lymphocytes (PBL)", "experiment": "P24 production in HIV-infected PBL (Test Example 6)", "format": "cell-based, HIV (HTLV-IIIB)", "settings": "sixth day, 8640 min", "method": "as §1\nAfter blood is collected from a vein by a syringe whose interior wall is wetted with heparin, PBL is separated from the blood with Ficol. After this PBL cell is inoculated on a 25-cm^2 culture flask containing 10 ml of a RPMI 1640 medium (including IL-2) added with 20% of a fetal bovine serum so as to contain 7×10^5 cells/ml therein, 40 μl (1 mg/ml) of PHA are added to culture the cells for 4 days. After 4 days, the cells are washed. Thereafter, they are used in assaying the anti-HIV effects of the test substances as PBL cells in an HIV-uninfected system for part of them, and in an HIV-infected system for the remainder. The PBL cells are inoculated on a 25-cm^2 culture flask added with 5 ml of the above medium so as to contain 2×10^6 cells therein. Then, 500 μl of S-HSA-Hemin or S-HSA-EDC-Hemin are given in various concentrations thereto so as to conduct culture at 37° C. in the presence of 5% CO2, thereby assaying the cytotoxic effects of the test substances in the various concentrations. With respect to the infected system on the other hand, 8 ml of HTLV-IIIB (10^7 TCID50 /ml) obtained from a culture supernatant of an HIV-persistently infected strain, MOLT-4/HTLV-IIIB are inserted in the PBL cells to culture them for 2 hours. Thereafter, the cells are washed, and then inoculated on a 25-cm^2 culture flask added with 5 ml of the above medium so as to contain 2×10^6 cells therein. In the same manner as described above, S-HSA-Hemin or S-HSA-EDC-Hemin is given in the various concentrations thereto, thereby conducting culture at 37° C. in the presence of 5% CO2. After 3, 6 and 9 days from the beginning of the culture, the number of cells are counted to calculate the quantity of the P24 protein produced and TCID50."}},
  "data": [
    {"substance": "S--HSA--EDC-Hemin: complex of succinylated human serum albumin and EDC-Hemin", "values": [
      {"measurement": "Number of living cells", "setting": "[1]; 3.125 μg/ml", "value": 86, "unit": "%"},
      {"measurement": "Number of living cells", "setting": "[1]; 6.25 μg/ml", "value": 71, "unit": "%"},
      {"measurement": "Number of living cells", "setting": "[1]; 12.5 μg/ml", "value": 53, "unit": "%"},
      {"measurement": "Number of living cells", "setting": "[1]; 25 μg/ml", "value": 45, "unit": "%"},
      {"measurement": "dose showing no toxicity", "setting": "mice", "value": "≤ 2,000 mg/kg"},
      {"measurement": "living cells in HIV-infected system, % of the control", "setting": "[2]; after 4 days", "value": 32, "unit": "%"},
      {"measurement": "Total number of living cells, infected system", "setting": "[2]; day 0 of culture", "value": "2.0 ×10^6"},
      {"measurement": "Total number of living cells, infected system", "setting": "[2]; day 4 of culture (untreated 15.3)", "value": "4.9 ×10^6"},
      {"measurement": "signs on the seventh to ninth day", "setting": "male ICR mice", "value": "transient piloerection, reduction in ultromotivity and pronation were found here and there in each dose group"},
      {"measurement": "Amount of p24 produced", "setting": "[3]; day 0 of culture", "value": 70, "unit": "ng/mL"},
      {"measurement": "Amount of p24 produced", "setting": "[3]; day 4 of culture (untreated 279)", "value": 8, "unit": "ng/mL"},
      {"measurement": "P24 production in infected system", "setting": "[4]; 15.2 μg/ml", "value": 2.8, "unit": "%"},
      {"measurement": "P24 production in infected system", "setting": "[4]; 30.3 μg/ml", "value": 2.8, "unit": "%"},
      {"measurement": "P24 production in infected system", "setting": "[4]; 60.6 μg/ml", "value": 1.1, "unit": "%"},
      {"measurement": "P24 production in infected system", "setting": "[4]; 91.0 μg/ml", "value": 2.8, "unit": "%"}
    ]}
  ]
}
